Construct, isoform or probe ends are uncertain for at least one entry. At least one verdict was read from the data and is not stated in words by the source.
Target: MBP-VP5 (Helicoverpa armigera cypovirus 5 (HaCPV-5)) (UniProt Q3LTV8)
Experiment: EMSA
Details: 10 pmol protein, 0.1 pmol probe; 25 mM HEPES-KOH pH 7.5, 100 mM NaCl, 10 ul, 30 min at room temperature; 2% agarose gel; recombinant protein; protein details: N-terminal MBP; label: 5'-HEX on DNA1

GTGTAGTAATCGTCCATTGTGTCT (double strand) [DNA1/DNA3]
binding result: binds
